# Test results published in patent publication US10611742B2, “4-oxo-4,5-dihydrothiazole derivative, preparation method and use thereof” (Institute of Pharmacology and Toxicology Academy of …, priority 2015, dated 2020).
# How the values were obtained:
# Type in all cases: cell-based
# Design in all cases: key: “—” represents that a sample has no anti-viral activity at a maximal nontoxic dose
# [1] = test system: enterovirus EV71 (SZ-98 strain); assay: anti-EV71 activity, therapeutic effect on Vero cell (CPE inhibition, Celltiter Glo); details: SI = TC50/IC50
# Procedure: (§1) Test principle: Vero cell, MRC-5 cell, and RD cell were used as host of virus, respectively, and samples were tested for their inhibition of cytopathic effect (CPE) caused by virus.
# (§2) 1. Virus strain: enterovirus EV71 (SZ-98 strain, provided by Chinese Center for Disease Control and Prevention), Vero cell (provided by the Cell Bank of Chinese Academy of Sciences), MRC-5 cell (provided by the Cell Bank of Chinese Academy of Sciences), and RD cell (provided by the Cell Bank of Chinese Academy of Sciences), were subjected to passage culture, respectively, and stored at −80° C.
# (§3) 2. Sample treatment: a test sample (Compounds 1-14 and positive control agent) was dissolved in dimethyl sulfoxide (DMSO) to prepare a stock solution, which was stored at −20° C. The stock solution was diluted with DMEM medium (Gibco Company) containing 2% fetal bovine serum (Gibco Company) to prepare a 100 μM solution before use, and was 3-fold diluted with the medium to obtain 8 diluted concentrates.
# (§4) 3. Positive control agent: Con1 (pitstop2) (purchased from AmyJet Scientific Inc., Abcam), a broad-spectrum antiviral inhibitor.
# (§5) 4. Test method: • 4.1 Therapeutic effect: the cells were seeded on a 96-well culture plate, and cultured in a 5% CO2, 37° C. incubator for 24 h. About 100 TCID50 enterovirus EV71 was added to each well. After adsorption at 37° C. for 1 h, the virus solution was discarded, and a drug was added at different diluted concentrates, respectively. Meanwhile, virus control and cell control were set, and cultured at 37° C. […] The virus-inhibition rate of a sample at each concentration was calculated based on the chemiluminescent value, the sample concentration was used as abscissa, and the inhibition rate was used as ordinate, and S-Curve fitting was performed by using Origin software. Half maximal inhibitory concentration (IC50) of each sample for enterovirus EV71 was calculated based on the fitting results. Median toxic concentration (TC50) was determined by the same method. […] To each well, a drug was added at a different diluted concentration, then the cells were cultured at 37° C. for 2 h, and then the drug was discarded. About 100 TCID50 enterovirus EV71 was added to each well, adsorbed at 37° C. for 1.5 h, then the virus solution was discarded, and a maintenance medium free of drug was added. Meanwhile, virus control and cell control were set, and cultured at 37° C. […] The virus-inhibition rate of a sample at each concentration was calculated, and half maximal inhibitory concentration (IC50), median toxic concentration (TC50), and selection index (SI) of each sample for enterovirus EV71 were calculated. The methods for determining and calculating them were as described in Item 4.1
# [2] = test system: enterovirus EV71 (SZ-98 strain); assay: anti-EV71 activity, therapeutic effect on RD cell (CPE inhibition, Celltiter Glo)
# Procedure: as §1, §2, §3, §4, §5
# [3] = test system: enterovirus EV71 (SZ-98 strain); assay: anti-EV71 activity, preventive effect on RD cell (CPE inhibition); details: SI = TC50/IC50
# Procedure: as §1, §2, §3, §4, §5
# [4] = test system: enterovirus EV71 (SZ-98 strain); assay: anti-EV71 activity, therapeutic effect on MRC-5 cell (CPE inhibition, Celltiter Glo); details: SI = TC50/IC50
# Procedure: as §1, §2, §3, §4, §5
# [5] = test system: enterovirus EV71 (SZ-98 strain); assay: anti-EV71 activity, preventive effect on Vero cell (CPE inhibition); details: SI = TC50/IC50
# Procedure: as §1, §2, §3, §4, §5
SMILES,SI [1],SI ([2]; SI = TC50/IC50),SI [3],SI [4],SI [5],SI ([2]; ratio CC50 / IC50)
"O=C1N=C(NS(=O)(=O)c2cccc3ccccc23)S/C1=C\c1ccc(Cl)cc1Cl [Compound 1, Naphthalene-1-sulfonic acid [5-(2,4-dichloro-benzylidene)-4-oxo-4,5-dihydro-thiazol-2-yl] amide]",1.44,—,—,—,—,
"COc1cc(/C=C2\SC(NS(=O)(=O)c3cccc4ccccc34)=NC2=O)ccc1O [Compound 2, Naphthalene-1-sulfonic acid [5-(3-methoxy-4-hydroxy-benzylidene)-4-oxo-4,5-dihydro-thiazol-2-yl] amide]",—,—,—,—,—,
"CCN(CC)c1ccc(/C=C2\SC(NS(=O)(=O)c3cccc4ccccc34)=NC2=O)c(O)c1 [Compound 3, Naphthalene-1-sulfonic acid [5-(2-hydroxy-4-diethylamino-benzylidene)-4-oxo-4,5-dihydro-thiazol-2-yl] amide]",2.50,1.7,—,—,—,1.7
"O=C1N=C(NS(=O)(=O)c2cccc3ccccc23)S/C1=C\c1ccc(Cl)cc1 [Compound 4, Naphthalene-1-sulfonic acid [5-(4-chloro-benzylidene)-4-oxo-4,5-dihydro-thiazol-2-yl] amide]",—,2.2,—,—,—,2.2
"O=C1N=C(NS(=O)(=O)c2cccc3ccccc23)S/C1=C\c1ccc(C(=O)O)cc1 [Compound 5, Naphthalene-1-sulfonic acid [5-(4-carboxy-benzylidene)-4-oxo-4,5-dihydro-thiazol-2-yl] amide]",—,9.0,>1.0,—,—,
"O=C1N=C(NS(=O)(=O)c2cccc3ccccc23)S/C1=C\c1cccc(O)c1 [Compound 6, Naphthalene-1-sulfonic acid [5-(3-hydroxy-benzylidene)-4-oxo-4,5-dihydro-thiazol-2-yl] amide]",—,2.5,—,—,—,
"COc1ccc(/C=C2\SC(NS(=O)(=O)c3cccc4ccccc34)=NC2=O)cc1O [Compound 7, Naphthalene-1-sulfonic acid [5-(3-hydroxy-4-methoxy-benzylidene)-4-oxo-4,5-dihydro-thiazol-2-yl] amide]",—,—,—,—,—,
"O=C1N=C(NS(=O)(=O)c2cccc3ccccc23)S/C1=C\c1ccc(O)c(Br)c1 [Compound 8, Naphthalene-1-sulfonic acid [5-(3-bromo-4-hydroxy-benzylidene)-4-oxo-4,5-dihydro-thiazol-2-yl] amide]",—,3.0,—,—,—,
"COc1cccc(OC)c1/C=C1\SC(NS(=O)(=O)c2cccc3ccccc23)=NC1=O [Compound 9, Naphthalene-1-sulfonic acid [5-(2,6-dimethoxy-benzylidene)-4-oxo-4,5-dihydro-thiazol-2-yl] amide]",—,—,—,—,—,
"O=C1N=C(NS(=O)(=O)c2cccc3ccccc23)S/C1=C\c1ccc(F)cc1Cl [Compound 10, Naphthalene-1-sulfonic acid [5-(2-chloro-4-fluoro-benzylidene)-4-oxo-4,5-dihydro-thiazol-2-yl] amide]",—,—,3.0,—,—,
"O=C1N=C(NS(=O)(=O)c2cccc3ccccc23)S/C1=C\c1ccc(-c2ccccc2)cc1 [Compound 11, Naphthalene-1-sulfonic acid (5-biphenyl-4-yl-methylene-4-oxo-4,5-dihydro-thiazol-2-yl) amide]",—,—,—,—,—,
"CC(=O)Nc1ccc(/C=C2\SC(NS(=O)(=O)c3cccc4ccccc34)=NC2=O)cc1 [Compound 12, Naphthalene-1-sulfonic acid [5-(4-acetylamino-benzylidene)-4-oxo-4,5-dihydro-thiazol-2-yl] amide]",—,—,—,—,—,
"O=C1N=C(NS(=O)(=O)c2cccc3ccccc23)SC1Nc1ccccc1 (centres unmarked) [Compound 13, Naphthalene-1-sulfonic acid (4-oxo-5-phenylamino-4,5-dihydro-thiazol-2-yl) amide]",—,—,9.0,—,—,
"O=C1N=C(NS(=O)(=O)c2cccc3ccccc23)SC1C(c1ccccc1)c1ccc(Br)cc1 (centres unmarked) [Compound 14, Naphthalene-1-sulfonic acid {5-[(4-bromo-phenyl)-phenyl-methyl]-4-oxo-4,5-dihydro-thiazol-2-yl} amide]",2.08,2.5,1.7,,—,
"O=C1N=C(NS(=O)(=O)c2cccc3ccccc23)S/C1=C\c1ccc(Br)cc1 [Con 1, Naphthalene-1-sulfonic acid [5-(4-bromo-benzylidene)-4-oxo-4,5-dihydro-thiazol-2-yl] amide, reference compound]",—,2.5,2.5,—,—,2.5
